US20110166072A1, “Methods of treating αvβ3 integrin-associated diseases by administering polypeptides selective for αvβ3 integrin” (NATIONAL CHENG KUNG UNIVERSITY, published 2011)

B1: Rhodostomin (ligand)
chain: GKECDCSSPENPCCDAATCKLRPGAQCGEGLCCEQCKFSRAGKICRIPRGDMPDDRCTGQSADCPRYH
B2: Rhodostomin variant ^48PRGDDL^53 (ligand)
chain: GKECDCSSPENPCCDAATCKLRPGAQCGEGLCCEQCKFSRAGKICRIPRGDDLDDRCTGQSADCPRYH
B3: PGP (rhodostomin variant ^48PRGDGP^53) (ligand)
chain: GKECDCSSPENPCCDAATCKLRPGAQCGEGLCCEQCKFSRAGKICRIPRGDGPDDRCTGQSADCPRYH
B4: Rhodostomin variant ^48ARGDDL^53 (ligand)
chain: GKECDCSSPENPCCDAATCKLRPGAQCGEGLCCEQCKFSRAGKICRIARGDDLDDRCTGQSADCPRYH

Experiments:
[1] = target: integrin αvβ3 (on rat osteoclast precursors) (rat); assay: cell-based or functional assay
[2] = target: platelet glycoprotein αIIbβ3 (on human platelets) (human, UniProt P08514 32-1039; P05106 27-788); assay: cell-based or functional assay

| Binder | Osteoclastogenesis IC50 [1] | Platelet aggregation IC50 [2] |
| --- | --- | --- |
| B1 | 5.52 nM | 83 nM |
| B2 | 3.15 nM | 396 nM |
| B3 | 5.76 nM | 283 nM |
| B4 | 8.02 nM | 455 nM |
